Compound potency records, mixed from different reports. Data source: NIAID ChemDB in PubChem.

All rows: whole-cell or culture tests; species: Mycobacterium tuberculosis

ECn: concentration that inhibits the pathogen or its effect by n%. MIC bound: limit read from a one-dose screen. Lines come from different laboratories, so protocols vary. Blank or dashed fields: not listed here. Inhibition is in % at the dose shown (toxicity tests: loss of growth or viability). A number after MIC or MFC names an inhibition level or a share of isolates. Two numbers with a dash give a range or band.

compound	strain or isolate	mutations	cells	read by	conditions	endpoint	dose	result
O=C1c2ccccc2C(=O)c2c1cccc2-n1nnc2cc(Cl)c(Cl)cc21	H37Rv			BACTEC		inhibition	12.5 µg/mL	-8%
Cc1ccc(Cn2nnc(-c3cc([N+](=O)[O-])cc([N+](=O)[O-])c3)n2)cc1	Praha 4				21 d	MIC		0.125 µM
CC(C)N1CCN(c2nc(=O)c3cc(C(F)(F)F)cc(C(=O)O)c3s2)CC1	H37Rv			resazurin		MIC		0.0019 µg/mL
CCOC(=O)c1c(NC(=O)c2c(F)c(F)c(F)c(F)c2F)sc2c1CCNC2=O	ATCC 35822			turbidity		MIC		1.4 µM
Cc1cc(=O)c2c([nH]1)c1c(c3[nH]c(C)cc(=O)c32)Oc2ccccc2O1	RMP-R					MIC		1.6 µg/mL
CC(O)c1c(-c2ccccc2)c(-c2ccccc2)n2ccc(C#N)cc12	H37Rv					EC50		<6.25 µg/mL
CCO/C(CCn1[nH]c(=O)c(Cl)c(Cl)c1=O)=N\NC(=O)C(=O)NN	H37Rv			BACTEC		inhibition	12.5 µg/mL	14%
CO[C@H]1/C=C/O[C@@]2(C)Oc3c(C)c(O)c4c(O)c(c(/C=N/N5CCN(C)CC5)c(O)c4c3C2=O)NC(=O)/C(C)=C\C=C\[C@H](C)[C@H](O)[C@@H](C)[C@@H](O)[C@@H](C)[C@H](OC(C)=O)[C@@H]1C	104396					MIC		≥2 µg/mL
CN(C(=O)/C=C/c1ccccc1)C1C2CN3CCC(O2)C13	H37Rv			BACTEC		inhibition	12.5 µg/mL	21%
N[C@@H]1CONC1=O	BCG					MIC		8 µg/mL
C[C@@H]1[C@H](C)[C@@H](c2ccc(O)cc2)O[C@H]1c1ccc(O)cc1	Clinical isolates			resazurin	multidrug-resistant	MIC		25 µg/mL
C=CCc1ccc(OC)c(OC)c1						MIC		>128 µg/mL
CN(C)C1CCC(Nc2nc(Nc3cc(Cl)cc(Cl)c3)nc3ccccc23)CC1.Cl.Cl	H37Rv			resazurin		inhibition	6.25 µg/mL	98%
COc1cc(C[C@@H](C)[C@@H](C)Cc2ccc(O)c(OC)c2)ccc1O	H37Rv			resazurin		MIC		50 µg/mL
O=C(O)CSc1nnc(-n2c(-c3ccccc3)nc3ccccc3c2=O)s1	H37Rv					MIC		40 µg/mL
NNC(=O)c1ccncc1	BCG					MBC		0.13 µg/mL
CCN1CCc2c(sc(NC(=O)c3c(F)c(F)c(F)c(F)c3F)c2C(=O)NC)C1	H37Rv	katG Y155 truncation mutant		turbidity		EC90		2.4 µM
c1cncc(-c2ncc(-c3ccc4c(c3)OCO4)o2)c1	H37Rv					MIC		25 µg/mL
N#Cc1ccn2c(-c3ccccc3)c(-c3ccccc3)c(Cc3ccccc3)c2c1	H37Rv					EC50		>6.25 µg/mL
N#Cc1c(-c2ccccc2)nc2sc(-c3ccco3)nn12	H37Rv			BACTEC		inhibition	6.25 µg/mL	<90%
CCCCCCCCCCCCCC1CCCC(CC(=O)OC)O1						MIC		>128 µg/mL
CCOC(=O)c1cc(C(=O)c2ccc(F)cc2)n2ccc(C(=O)OC(C)C)cc12		MDR-MTB		resazurin		MIC		4 µg/mL
O=C1C(=O)N(CCCCCCCN2CCN(c3ccnc4cc(Cl)ccc34)CC2)c2ccc(F)cc21	MC2 6230					MIC99		38.24 µM
CC1C(=O)OC2CC[N+]3([O-])CC=C(COC(=O)C(C)(O)C1(C)O)C23	H37Rv			BACTEC		inhibition	12.8 µg/mL	16%
c1ccc(-c2cn3nc(-c4ccco4)sc3n2)cc1	H37Rv			BACTEC		inhibition	6.25 µg/mL	<90%
CCCCNC(=O)c1c(N)sc2c1CCN(CC)C2	H37Rv			resazurin		MIC		>100 µg/mL
Cc1nc([N+](=O)[O-])cn1-c1ccc(Cl)cc1	H37Rv		VERO			inhibition	6.25 µg/mL	99%
O=C(/C=C/c1ccc(O)cc1)NCCc1ccc(O)cc1						MIC		32 µg/mL
NCC[C@H](O)C(=O)N[C@@H]1C[C@H](N)[C@@H](O[C@H]2O[C@H](CN)[C@@H](O)[C@H](O)[C@H]2O)[C@H](O)[C@H]1O[C@H]1O[C@H](CO)[C@@H](O)[C@H](N)[C@H]1O						MIC		0.5 µg/mL
CN[C@@H]1[C@H](O[C@H]2[C@H](O[C@H]3[C@H](O)[C@@H](O)[C@H](N=C(N)N)[C@@H](O)[C@@H]3N=C(N)N)O[C@@H](C)[C@]2(O)C=O)O[C@@H](CO)[C@H](O)[C@H]1O	MC8					MIC		<2 µg/mL
Nc1nc(-c2cccc([N+](=O)[O-])c2)c(N=Nc2ccccc2[N+](=O)[O-])s1	H37Rv			BACTEC		MIC bound		>6.25 µg/mL
c1ccc(-c2cn3nc(-c4cccs4)sc3n2)cc1	H37Rv			BACTEC		inhibition	6.25 µg/mL	<90%
C[C@H]1COC2(CCN(c3nc(=O)c4cc(C(F)(F)F)cc(C(=O)O)c4s3)CC2)O1	NTB1			resazurin		MIC99		25 µg/mL
COc1cc(-c2oc3c(OC)c(OC)cc(O)c3c(=O)c2OC)ccc1O	H37Rv			resazurin		MIC		>50 µg/mL
O=C(O)c1oc2ccccc2c1/C=C/c1ccccc1	H37Rv			BACTEC		inhibition	12.5 µg/mL	-8%
CC(=O)/C=C/CCCCCCCCCCCCCCCCCCCc1ccc2c(c1)OCO2						MIC		>128 µg/mL
NNC(=O)c1ccncc1	Isolate UT1885 (katG S315T mutation)					MIC		12 µg/mL
CCN(CC)CCCNc1c(OC)cc(C)c2sc3ccccc3c(=O)c12.O=C(O)/C=C/C(=O)O	H37Rv			BACTEC		inhibition	12.5 µg/mL	61%
CC[C@@H]1C(=O)OC[C@@H]1Cc1cncn1C	H37Rv					MIC		>200 µg/mL
N#Cc1ccn2c(-c3ccccc3)c(-c3ccccc3)cc2c1	H37Rv					EC50		>6.25 µg/mL
Cc1[nH]n(-c2ccccc2)c(=O)c1N=Nc1cccc(C(F)(F)F)c1	H37Rv			BACTEC		MIC		≥12.8 µg/mL
O=c1c2cc(I)ccc2nc(-c2ccccc2)n1-c1n[nH]c(=S)s1	H37Rv					MIC		40 µg/mL
COc1ccc(-c2csc(Nc3cc(Cl)cc(Cl)c3)n2)cc1				resazurin		MIC		15.6 µM
N#Cc1c(NC(=O)c2c(F)c(F)c(F)c(F)c2F)sc2c1CCOC2	ATCC35838			turbidity		EC90		5.4 µM
CC(=O)CCCCCCCCCCCCCCc1ccc2c(c1)OCO2						MIC		6.25 µg/mL
Cn1cc(Cc2c[nH]c3ccccc3c2=O)c2ccccc21	H37Rv			BACTEC		inhibition	6.25 µg/mL	61%
O=Cc1c(-c2ccccc2)nc2sc(-c3ccco3)nn12	H37Rv			BACTEC		inhibition	6.25 µg/mL	100%
O=[N+]([O-])c1ccc(-n2cc([N+](=O)[O-])cn2)cc1	H37Rv					MIC		>6.25 µg/mL
O=c1c2ccccc2nc(-c2ccccc2)n1-c1nnc(SCC2CO2)s1	H37Rv					MIC		>40 µg/mL
CC[C@H]1C[C@@H]2CN3CCc4c([nH]c5ccc(OC)cc45)[C@](C(=O)OC)(C2)[C@H]13	H37Rv					MIC		50 µg/mL
Cc1ccn2c(C(=O)OCc3ccccc3)c(C)nc2c1	XDR-TB	Resistant to HRESKO		broth dilution		MIC90		<0.01 µg/mL
NC(=O)C(=O)N/N=C1\c2ccccc2CC1C1(O)C(=O)Nc2c(Cl)cc(Cl)cc21	H37Rv			BACTEC		MIC bound		>12.5 µg/mL
CO[C@H]1/C=C/O[C@@]2(C)Oc3c(C)c(O)c4c(O)c(c(/C=N/N5CCN(C)CC5)c(O)c4c3C2=O)NC(=O)/C(C)=C\C=C\[C@H](C)[C@H](O)[C@@H](C)[C@@H](O)[C@@H](C)[C@H](OC(C)=O)[C@@H]1C		511Pro				MIC99		80–640 µg/mL
Cc1nc([N+](=O)[O-])cn1-c1ccc(Br)cc1	H37Rv					inhibition	6.25 µg/mL	85%
CCCCC1CCCCCCc2[nH]c(/C=C3\N=C(c4ccc[nH]4)C=C3OC)cc21.Cl	INH-r					MIC		6.3 µg/mL
CCOC(=O)c1c(NC(=O)c2c(F)c(F)c(F)c(F)c2F)sc2c1CCOC2	H37Rv	rpoB S522L mutant		turbidity		MIC		0.25 µM
COc1cc2oc3c(c(=O)c2c(O)c1/C=C/C(C)C)C(C=C(C)C)Oc1cc(O)ccc1-3	H37Rv			BACTEC		MIC bound		≤12.5 µg/mL
COc1cc(CCc2ccc3c(c2)OCO3)oc(=O)c1						MIC		4 µg/mL
Brc1ccc(-c2nc3sc(C4CCCCC4)nn3c2CN2CCCC2)cc1	H37Rv			BACTEC		inhibition	6.25 µg/mL	<90%
COc1ccc(CNC(=O)c2ccc([N+](=O)[O-])o2)cc1OC						MIC90		0.2 µg/mL
O=C1C(=O)N(CCCCN2CCN(c3ccnc4cc(Cl)ccc34)CC2)c2ccc(F)cc21	MC2 6230					MIC99		107 µM
O=c1c2cc(Br)ccc2nc(-c2ccccc2)n1-c1n[nH]c(=S)s1	H37Rv					MIC		20 µg/mL
N#Cc1ccn2c(-c3ccccc3)c(-c3ccccc3)c(CO)c2c1	H37Rv					EC50		<6.25 µg/mL
CC(=O)/C=C/CCCCCCCCCCCCCCCCCCCCc1ccc2c(c1)OCO2						MIC		>128 µg/mL
CCCCN1CCN(c2nc(=O)c3cc(C(F)(F)F)cc(C(=O)O)c3s2)CC1	H37Rv			resazurin		MIC		0.0019 µg/mL
O=C(O)CSc1nnc(-n2c(-c3ccccc3)nc3ccc(I)cc3c2=O)s1	H37Rv					MIC		10 µg/mL
Cc1[nH]nc(C(=O)NO)c1N	H37Rv			BACTEC		MIC bound		>12.5 µg/mL
N#Cc1ccn2c(-c3ccccc3)c(-c3ccccc3)c(C(O)C3CCCCC3)c2c1	H37Rv					inhibition	6.25 µg/mL	90%
Cc1cc2cccnc2c2ncccc12	H37Rv			BACTEC		inhibition	12.5 µg/mL	99%
CCNC(=O)c1c(NC(=O)c2c(F)c(F)c(F)c(F)c2F)sc2c1CCN(CC)C2	ATCC 35822			turbidity		MIC		11 µM
CN[C@@H]1[C@H](O[C@H]2[C@H](O[C@H]3[C@H](O)[C@@H](O)[C@H](N=C(N)N)[C@@H](O)[C@@H]3N=C(N)N)O[C@@H](C)[C@]2(O)C=O)O[C@@H](CO)[C@H](O)[C@H]1O	Praha 4					MIC		>27.5 µM
Nc1ccc(C(=O)O)c(O)c1	BCG					MIC		8 µg/mL
O=C(O)CSc1nnc(-n2c(-c3ccccc3)nc3ccc(Br)cc3c2=O)s1	H37Rv					MIC		20 µg/mL
CCN1CCc2c(sc(NC(=O)c3c(F)c(F)c(F)c(F)c3F)c2C#N)C1				low oxygen		EC50		6.1 µM
O=C(O)/C(O)=C(\O)C(=O)O	H37Rv			BACTEC		inhibition	12.5 µg/mL	23%
CC(O)(c1ccccc1)c1c(-c2ccccc2)c(-c2ccccc2)n2ccc(C#N)cc12	H37Rv					EC50		<6.25 µg/mL
c1ccc(P(CCc2ccccn2)c2ccccc2)cc1	H37Rv			broth dilution / visual reading	14 d	MIC99		160 µM
Cc1ccc2c(c1)C(=O)C(=O)N2CCCCCN1CCN(c2ccnc3cc(Cl)ccc23)CC1	MC2 6230					MIC99		52.52 µM
CN1c2ccccc2C(=O)N2C(=O)CCC21C	H37Rv			BACTEC		inhibition	12.5 µg/mL	-9%
CCSN(SCC)C(=S)c1c(C#N)cc([N+](=O)[O-])cc1[N+](=O)[O-]						MIC		5.37 µg/mL
O=C(Nc1ccc(C2=NCCCN2)cc1)c1ccc(C(=O)Nc2ccc(C3=NCCCN3)cc2)nc1	ETA-R					MIC		12.5 µg/mL
CCN1CCc2c(sc(NC(=O)c3c(F)c(F)c(F)c(F)c3F)c2C(N)=O)C1	ATCC 35838 RIF-R2 rifampicin-resistant			turbidity		inhibition	11 µM	90%
CCOc1ccc2c(c1)n([O-])c1cc(Cl)ccc1[n+]2=O	CS-R					MIC		3.1 µg/mL
CC1(C)CC[C@]2(C(=O)O)CC[C@]3(C)C(=CCC4[C@@]5(C)CC[C@H](O)C(C)(C)C5CC[C@]43C)C2C1	H37Rv (streptomycin-resistant)					MIC		50 µg/mL

For reference, 9 entries again:

| compound | strain or isolate | mutations | cells | read by | conditions | endpoint | dose | result |
|---|---|---|---|---|---|---|---|---|
| O=[N+]([O-])c1ccc(-n2cc([N+](=O)[O-])cn2)cc1 | H37Rv |  |  |  |  | MIC |  | >6.25 µg/mL |
| CCN1CCc2c(sc(NC(=O)c3c(F)c(F)c(F)c(F)c3F)c2C#N)C1 |  |  |  | low oxygen |  | EC50 |  | 6.1 µM |
| CCOC(=O)c1c(NC(=O)c2c(F)c(F)c(F)c(F)c2F)sc2c1CCNC2=O | ATCC 35822 |  |  | turbidity |  | MIC |  | 1.4 µM |
| Cc1nc([N+](=O)[O-])cn1-c1ccc(Cl)cc1 | H37Rv |  | VERO |  |  | inhibition | 6.25 µg/mL | 99% |
| CC(C)N1CCN(c2nc(=O)c3cc(C(F)(F)F)cc(C(=O)O)c3s2)CC1 | H37Rv |  |  | resazurin |  | MIC |  | 0.0019 µg/mL |
| COc1cc(C[C@@H](C)[C@@H](C)Cc2ccc(O)c(OC)c2)ccc1O | H37Rv |  |  | resazurin |  | MIC |  | 50 µg/mL |
| CC[C@@H]1C(=O)OC[C@@H]1Cc1cncn1C | H37Rv |  |  |  |  | MIC |  | >200 µg/mL |
| O=C1C(=O)N(CCCCCCCN2CCN(c3ccnc4cc(Cl)ccc34)CC2)c2ccc(F)cc21 | MC2 6230 |  |  |  |  | MIC99 |  | 38.24 µM |
| O=C(O)c1oc2ccccc2c1/C=C/c1ccccc1 | H37Rv |  |  | BACTEC |  | inhibition | 12.5 µg/mL | -8% |